Values from PubChem BioAssay AID624099 (ICCB-Longwood, 2012).

- Purpose: 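Host factors E2 relies on to silence an HPV18 LCR reporter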 (primary screen)
- Cell system: human C33A cervical carcinoma cells (HPV-negative) stably expressing BPV1 E2 and an HPV18 LCR luciferase reporter
- Knock-down reagent: siRNA pool against human genes, 40 nM
- Timing: 72 h
- Read-out: 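HPV18 LCR reporter light per well, converted to plate-wise z-scores that exclude control wells, and averaged over triplicate plates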
- Scale: mean z-score and z-score: higher = stronger reporter signal, weaker E2 silencing
- Call rule: 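Mean z ≥ 2 together with z ≥ 2 in two or more of the three replicates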
The whole screen tested about 21,000 reagents; below is a part drawn at random. Of all reagents, 497 (2.4%) got an active call. 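Higher z means weaker E2 silencing; only reporter increases were scored, and knock-downs that hurt cell survival may mask genuine repressor factors.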 The numbers tell different reagents against one gene apart.

| Target gene | reagent no. | mean z-score | z-score, replicate A | z-score, replicate B | z-score, replicate C | outcome |
| --- | --- | --- | --- | --- | --- | --- |
| SH2D6 | 1 | -0.39 | -0.34 | -0.29 | -0.52 | inactive |
| PLCB4 | 1 | -1.15 | -1.34 | -1.05 | -1.06 | inactive |
| ZNF197 | 1 | -1.08 | -1.17 | -0.9 | -1.17 | inactive |
| KRT35 | 1 | 0.3 | 0.62 | 0.36 | -0.09 | inactive |
| HS6ST3 | 1 | 0.05 | 0.25 | -0.1 | 0 | inactive |
| LOC388924 (retired record) | 1 | 0.18 | 0.87 | 0.15 | -0.49 | inactive |
| PRG2 | 1 | 0.56 | 0.47 | 0.73 | 0.49 | inactive |
| LOC402604 (retired record) | 1 | 0.31 | 0.17 | 0.31 | 0.43 | inactive |
| P2RY14 | 1 | -0.32 | -0.06 | -0.36 | -0.52 | inactive |
| NPIPB13 | 1 | -0.23 | -0.01 | -0.19 | -0.48 | inactive |
| UBE2S | 1 | -1.66 | -1.71 | -1.69 | -1.59 | inactive |
| ABCA15P | 1 | -1.25 | -1.3 | -1.54 | -0.92 | inactive |
| CCNE2 | 1 | -0.11 | -0.12 | -0.01 | -0.19 | inactive |
| CASP7 | 1 | 0.45 | -0.07 | 0.61 | 0.81 | inactive |
| CDK11B | 1 | -0.62 | -0.78 | -0.82 | -0.25 | inactive |
| BABAM2 | 1 | 0.59 | 0.5 | 0.23 | 1.03 | inactive |
| CEACAM8 | 1 | 0.56 | 0.84 | 0.02 | 0.84 | inactive |
| SLC39A4 | 1 | 0.31 | 0.19 | 0.32 | 0.4 | inactive |
| EGLN1 | 1 | -0.11 | -0.39 | -0.17 | 0.22 | inactive |
| ALG10 | 1 | 0.03 | -0.1 | 0.09 | 0.11 | inactive |
| ZDHHC6 | 1 | 0.72 | 0.63 | 0.37 | 1.15 | inactive |
| AVPI1 | 1 | 0.24 | -0.29 | 0.18 | 0.82 | inactive |
| FLJ31183 (retired record) | 1 | -0.02 | 0.02 | 0.22 | -0.29 | inactive |
| HAS2 | 1 | 0.36 | 0.46 | 0.38 | 0.25 | inactive |

Part of the list above, reformatted.
KRT35
- mean z-score: 0.3
- z-score, replicate A: 0.62
- z-score, replicate B: 0.36
- z-score, replicate C: -0.09
- outcome: inactive

HS6ST3
- mean z-score: 0.05
- z-score, replicate A: 0.25
- z-score, replicate B: -0.1
- z-score, replicate C: 0
- outcome: inactive

LOC388924 (retired record)
- mean z-score: 0.18
- z-score, replicate A: 0.87
- z-score, replicate B: 0.15
- z-score, replicate C: -0.49
- outcome: inactive

PRG2
- mean z-score: 0.56
- z-score, replicate A: 0.47
- z-score, replicate B: 0.73
- z-score, replicate C: 0.49
- outcome: inactive

LOC402604 (retired record)
- mean z-score: 0.31
- z-score, replicate A: 0.17
- z-score, replicate B: 0.31
- z-score, replicate C: 0.43
- outcome: inactive

P2RY14
- mean z-score: -0.32
- z-score, replicate A: -0.06
- z-score, replicate B: -0.36
- z-score, replicate C: -0.52
- outcome: inactive

NPIPB13
- mean z-score: -0.23
- z-score, replicate A: -0.01
- z-score, replicate B: -0.19
- z-score, replicate C: -0.48
- outcome: inactive

UBE2S
- mean z-score: -1.66
- z-score, replicate A: -1.71
- z-score, replicate B: -1.69
- z-score, replicate C: -1.59
- outcome: inactive

ABCA15P
- mean z-score: -1.25
- z-score, replicate A: -1.3
- z-score, replicate B: -1.54
- z-score, replicate C: -0.92
- outcome: inactive

CCNE2
- mean z-score: -0.11
- z-score, replicate A: -0.12
- z-score, replicate B: -0.01
- z-score, replicate C: -0.19
- outcome: inactive

CASP7
- mean z-score: 0.45
- z-score, replicate A: -0.07
- z-score, replicate B: 0.61
- z-score, replicate C: 0.81
- outcome: inactive

Next entries:
| Target gene | reagent no. | mean z-score | z-score, replicate A | z-score, replicate B | z-score, replicate C | outcome |
| --- | --- | --- | --- | --- | --- | --- |
| OR10A7 | 1 | -0.83 | -1.45 | -0.56 | -0.46 | inactive |
| MNMIP1 | 1 | -0.33 | -0.09 | -0.54 | -0.36 | inactive |
| CHD3 | 1 | -0.18 | -0.23 | -0.11 | -0.21 | inactive |
| NCKAP5 | 1 | 0.58 | 0.77 | 0.81 | 0.17 | inactive |
| NCKAP5 | 2 | -0.1 | -0.07 | -0.31 | 0.09 | inactive |
| TNS1 | 1 | 1.72 | 2.07 | 1.2 | 1.89 | inactive |
| CMKLR2 | 1 | 0.65 | 0.73 | 0.63 | 0.58 | inactive |
| SKAP2 | 1 | -0.4 | -0.5 | -0.31 | -0.37 | inactive |
| SLC25A34 | 1 | 0.41 | 0.62 | 0.52 | 0.07 | inactive |
| PHF11 | 1 | -0.58 | -0.78 | -0.4 | -0.56 | inactive |
| FOXA1 | 1 | 0.17 | 0.6 | 0.05 | -0.14 | inactive |
| LOC402523 (retired record) | 1 | 0.54 | 0.76 | 0.39 | 0.45 | inactive |
| DONSON | 1 | -1.89 | -1.5 | -2.21 | -1.96 | inactive |
| SHROOM2 | 1 | -2.24 | -2.61 | -2.19 | -1.93 | inactive |
| PAGE2B | 1 | -0.04 | 0.1 | 0.13 | -0.35 | inactive |
| CD46 | 1 | -0.69 | -0.74 | -0.63 | -0.69 | inactive |
| H3Y2 | 1 | -1.18 | -1.38 | -1.15 | -1.01 | inactive |
| KLK7 | 1 | 0.07 | 0.24 | 0.12 | -0.16 | inactive |
| UBIAD1 | 1 | 0.35 | 0.41 | 0.39 | 0.23 | inactive |
| CRYBG1 | 1 | -0.69 | -0.71 | -0.87 | -0.48 | inactive |
| ARMC7 | 1 | -0.85 | -0.99 | -0.71 | -0.86 | inactive |
| TM9SF1 | 1 | -0.7 | -0.67 | -0.76 | -0.68 | inactive |
| GTF3C2 | 1 | -0.09 | -0.03 | -0.15 | -0.1 | inactive |
| OR5J2 | 1 | 0.55 | 0.58 | 0.85 | 0.24 | inactive |
| LIMD1 | 1 | 0.4 | 0.75 | -0.06 | 0.52 | inactive |
| CHCHD2P9 | 1 | 0.52 | 0.53 | 0.39 | 0.65 | inactive |
| GRPR | 1 | 0.5 | 0.59 | 0.29 | 0.62 | inactive |
| SF3B1 | 1 | -4.29 | -4.21 | -4.6 | -4.06 | inactive |
| LOC389185 (retired record) | 1 | -0.35 | -0.1 | -0.9 | -0.05 | inactive |
| ROR2 | 1 | 0.46 | 0.6 | 0.45 | 0.33 | inactive |
| JRK | 1 | 0.12 | 0.33 | -0.1 | 0.12 | inactive |
| RETN | 1 | -0.54 | -0.39 | -0.68 | -0.57 | inactive |
| PATE4 | 1 | 0.42 | 1.26 | -0.09 | 0.08 | inactive |
| OR1D4 | 1 | -1.69 | -1.77 | -1.97 | -1.33 | inactive |
| ENO4 | 1 | -0.14 | -0.3 | -0.17 | 0.05 | inactive |
| TUBB8P11 | 1 | 1.01 | 1.36 | 1.11 | 0.58 | inactive |
| RPS27L | 1 | -0.22 | 0.08 | -0.17 | -0.57 | inactive |
| CD99P1 | 1 | 0.04 | 0.23 | 0.16 | -0.27 | inactive |
| PDE6C | 1 | 0.18 | 0.14 | 0.45 | -0.04 | inactive |
| STEAP2 | 1 | -1.05 | -0.84 | -1.08 | -1.23 | inactive |
| KCTD6 | 1 | -1.31 | -1.28 | -1.15 | -1.49 | inactive |
| ZC3H15 | 1 | -0.55 | -0.97 | -0.72 | 0.02 | inactive |
| TANC2 | 1 | -0.88 | -0.66 | -0.74 | -1.23 | inactive |
| RHOF | 1 | -0.38 | -0.17 | -0.47 | -0.49 | inactive |
| UGT2B4 | 1 | 0.16 | 0.19 | 0.18 | 0.11 | inactive |
| LOC339746 (retired record) | 1 | -0.73 | -0.87 | -0.43 | -0.9 | inactive |
| LIPH | 1 | 0.21 | 0.41 | 0.19 | 0.04 | inactive |
| CLEC9A | 1 | 0.53 | 0.54 | 0.67 | 0.37 | inactive |
| SLC6A16 | 1 | 1.05 | 0.7 | 0.9 | 1.55 | inactive |
